Experimental findings from patent US20230357139A1, “SMALL MOLECULE INHIBITORS OF BACTERIAL TOXINS” (Artizan Biosciences, Inc., priority 2020, published 2023) are described below.

Amino acid sequences for entries named in this document (tags omitted). Residues count along the entry.
UniProt Q833V7, 193-510 limits assumed: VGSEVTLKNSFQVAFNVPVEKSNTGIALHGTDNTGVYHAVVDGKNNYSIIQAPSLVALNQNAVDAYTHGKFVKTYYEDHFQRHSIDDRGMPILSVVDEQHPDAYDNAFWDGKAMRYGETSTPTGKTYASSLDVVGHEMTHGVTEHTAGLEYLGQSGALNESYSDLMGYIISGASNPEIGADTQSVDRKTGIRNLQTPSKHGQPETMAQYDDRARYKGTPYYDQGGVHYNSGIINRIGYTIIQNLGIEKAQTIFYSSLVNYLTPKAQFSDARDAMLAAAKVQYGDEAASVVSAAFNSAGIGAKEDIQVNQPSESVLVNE

The assay concerns the target Gelatinase E (GelE) (Enterococcus faecalis (strain ATCC 700802 / V583), UniProt Q833V7). Description: Gelatinase E activity assay (FRET peptide substrate). The following applies: read-out: GelE IC50; Table 11. As for the experimental part:
Gelatinase E (Gel E) was purified from bacterial culture supernatant from E. faecalis. E. faecalis was cultured aerobically in Todd Hewitt Broth overnight at 37° C. Nucleic acid was precipitated with 0.9% protamine solution, followed by protein precipitation with ammonium sulfate. Resuspended protein pellet was further subjected to purification using FPLC (phenyl Sepharose column). Fractions with gelatinase activity as determined by casein agar assay were pooled and further concentrated.
Different concentrations of test compound were incubated with purified GelE and FRET-based peptide substrate (390 MMP FRET Substrate 1; Anaspec AS-27077) in assay buffer at room temperature for 30 minutes. The fluorescence signal was determined by a plate reader.

A value given as a limit tells only on which side of the number the result lay.

One may read the IC50 as the concentration at which inhibition is half-maximal. Consider `COc1ccc(S(=O)(=O)N(CC(=O)NO)CC(C)C)nc1`, for which the IC50 came to 299 nM.

Take `CSc1ccc(S(=O)(=O)N(CC(N)=O)CC(C)C)cc1`: the 50% inhibitory concentration (IC50) is more than 100000 nM.
